{"source": "the supplement of paper PMC9931576", "binders": {"B1": {"name": "BD55-4351 (protein)", "chain 1": "QVQLVESGGGVVQPGRSLRLSCAASGFTFSDYGMHWVRQAPGKGLEWVAVISHDGSKKYYADSVKGRFTISRDNSKNTLYLQMNSLRAEDTAVHYCAKEGYSGYDFSSPQRYYHYTLDVWGQGTTVTVSS", "chain 2": "QSVLTQPPSASGTPGQRVTISCSGSISNIGSNTVNWYQHLPGTAPKLLIYSNNQRPSGVPDRFSGSRSGTSASLAISGLQSEDEADYYCAAWDDSLNCMVFGGGTKLTVL"}, "B2": {"name": "BD55-1009 (protein)", "chain 1": "QVQLVQSGAEVKKPGSSVKVSCKTSGGTFRNYPISWVRQAPGQGLEWMGRIIPVPGTVDYAQKFQGRVTFTADKSTFTAYMELNSLRSDDTAVYYCATWAEIYTSASSWAFDTWGQGTRVTVSS", "chain 2": "DIQMTQSPSSLSASVGDRITITCLASQDINNYLNWYQQKPGKAPKLLIYDASNLVTGVPSRFSGSGSGTDFVFTITGLQPEDFATYYCQHYDNLPPITFGQGTRLEIK"}, "B3": {"name": "BD55-4397 (protein)", "chain 1": "EVQLVESGGGLVQPGGSLRLSCTASGFAFSTYEMNWVRQAPGKGLEWVSFISTGGNILYYADSLEGRFTISRDNAKNSLYLQMNGLRAEDTAVYYCARHYYDTSGLRGFFQHWGRGTLVTVSS", "chain 2": "DIQMTQSPSSLSASVGDRVTITCRASQSIGTYLNWYQQKPGKAPKLLIYAASSLQSGVPSRFSGSGSGTDFTLTISSLQPEDFATYYCQQSYTTFFFTFGPGTKVVIR"}, "B4": {"name": "BD55-4467 (protein)", "chain 1": "EVQLVESGGGLIQPGGSLRLSCAASGFIFSRYAMSWVRQPPGKGLEWVASISGGADDTYYADSVKGRLTTSRDNSKNTLYLQMNTLRVEDTAVYYCAKGPRYNWDYGDYWGQGIMVTVSS", "chain 2": "DIQMTQSPSTLSASVGDRVTMTCRASQSISSWLAWYQQKPGKAPKLLIYDASSLDSGVPSRFSGSGSGTEFTLTISSLQPDDFATYYCQQYNSYLSTFGQGTKLEIK"}, "B5": {"name": "BD55-4495 (protein)", "chain 1": "QGHLVQSGAEVKEPGASVTLSCKASGYTFTNHFMHWVRQAPGQGLEWMARINPSGDSTNLAQKFQGRVSVTRDSSTSTVYMYLSRLRVEDTAVYYCARDRFPSPGNFVWGSPLGGMDVWGQGTTVTVSS", "chain 2": "SYDLAQPPSVSVSPGQTATITCSGAALPNQYAYWYQQKSGQAPVLLLYKDSERPSGIPERFSGSNSGTTVTLTISGVQAEDEAVYYCQSADSSTSYHVFGAGTKVTVL"}, "B6": {"name": "BD55-4637 (protein)", "chain 1": "QITLKESGPTLVKPKQTLTLTCTFSGFSLKKNGVGVGWIRQPPGKALEWLALIYWDDSKRYNPSLKTRLTITGDTSKNQVVLTLTNVDPVDTATYFCAHRPDLDSDLIVVDAFDMWGQGTMVTVSS", "chain 2": "QSVLTQPPSASGTPGQRVTISCSGSSSNIGRNTVNWYQHLPGTVPKLLIYHNNHRPSGVPGRFSGSKSGTSASLAISGLQSEDEADYYCETWDDSLSGVVFGAGTRLTVL"}}, "note": "Human monoclonal antibodies against the spike receptor-binding domain (heavy:light variable regions). IC50 against pseudoviruses bearing the spike of naturally observed variants; lower = stronger; >10 µg/ml means not reached at the top dose. No active / inactive call. The stated detection limit is 0.0005 µg/ml; values near or below 0.001 µg/ml lie at the floor of the assay."}
{"biological_target": "SARS-CoV-2 Omicron BA.1 spike pseudovirus", "assay": "pseudovirus neutralization IC50; higher = weaker neutralization", "description": "(§1)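 Single-round VSV luciferase pseudovirus mixed with antibody dilutions for 1 h and put on Huh-7 cells for about a day; IC50 from the dose curve.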", "units": {"pseudovirus neutralization IC50": "µg/mL"}}
{"binder": "B1", "pseudovirus neutralization IC50": "> 10"}
{"binder": "B2", "pseudovirus neutralization IC50": "> 10"}
{"binder": "B3", "pseudovirus neutralization IC50": "> 10"}
{"binder": "B4", "pseudovirus neutralization IC50": 7.27}
{"binder": "B5", "pseudovirus neutralization IC50": 0.13}
{"binder": "B6", "pseudovirus neutralization IC50": 0.0227}
{"biological_target": "SARS-CoV-2 Omicron BA.2 spike pseudovirus", "assay": "pseudovirus neutralization IC50; higher = weaker neutralization", "description": "as §1", "units": {"pseudovirus neutralization IC50": "µg/mL"}}
{"binder": "B1", "pseudovirus neutralization IC50": "> 10"}
{"binder": "B2", "pseudovirus neutralization IC50": 0.0158}
{"binder": "B3", "pseudovirus neutralization IC50": "> 10"}
{"binder": "B4", "pseudovirus neutralization IC50": 8.94}
{"binder": "B5", "pseudovirus neutralization IC50": 0.146}
{"binder": "B6", "pseudovirus neutralization IC50": 0.0225}
{"biological_target": "SARS-CoV-2 Omicron BA.2.75 spike pseudovirus", "assay": "pseudovirus neutralization IC50; higher = weaker neutralization", "description": "as §1", "units": {"pseudovirus neutralization IC50": "µg/mL"}}
{"binder": "B1", "pseudovirus neutralization IC50": "> 10"}
{"binder": "B2", "pseudovirus neutralization IC50": 0.422}
{"binder": "B3", "pseudovirus neutralization IC50": "> 10"}
{"binder": "B4", "pseudovirus neutralization IC50": 6.29}
{"binder": "B5", "pseudovirus neutralization IC50": 0.157}
{"binder": "B6", "pseudovirus neutralization IC50": 0.0302}
{"biological_target": "SARS-CoV-2 Omicron BA.5 spike pseudovirus", "assay": "pseudovirus neutralization IC50; higher = weaker neutralization", "description": "as §1", "units": {"pseudovirus neutralization IC50": "µg/mL"}}
{"binder": "B1", "pseudovirus neutralization IC50": "> 10"}
{"binder": "B2", "pseudovirus neutralization IC50": "> 10"}
{"binder": "B3", "pseudovirus neutralization IC50": "> 10"}
{"binder": "B4", "pseudovirus neutralization IC50": "> 10"}
{"binder": "B5", "pseudovirus neutralization IC50": 0.321}
{"binder": "B6", "pseudovirus neutralization IC50": 0.0243}
{"biological_target": "SARS-CoV-2 Omicron BQ.1.1 spike pseudovirus", "assay": "pseudovirus neutralization IC50; higher = weaker neutralization", "description": "as §1", "units": {"pseudovirus neutralization IC50": "µg/mL"}}
{"binder": "B1", "pseudovirus neutralization IC50": "> 10"}
{"binder": "B2", "pseudovirus neutralization IC50": "> 10"}
{"binder": "B3", "pseudovirus neutralization IC50": "> 10"}
{"binder": "B4", "pseudovirus neutralization IC50": "> 10"}
{"binder": "B5", "pseudovirus neutralization IC50": "> 10"}
{"binder": "B6", "pseudovirus neutralization IC50": 0.0189}
{"biological_target": "SARS-CoV-2 Omicron XBB spike pseudovirus", "assay": "pseudovirus neutralization IC50; higher = weaker neutralization", "description": "as §1", "units": {"pseudovirus neutralization IC50": "µg/mL"}}
{"binder": "B1", "pseudovirus neutralization IC50": "> 10"}
{"binder": "B2", "pseudovirus neutralization IC50": "> 10"}
{"binder": "B3", "pseudovirus neutralization IC50": "> 10"}
{"binder": "B4", "pseudovirus neutralization IC50": "> 10"}
{"binder": "B5", "pseudovirus neutralization IC50": "> 10"}
{"binder": "B6", "pseudovirus neutralization IC50": 0.0277}
{"biological_target": "SARS-CoV-2 early D614G spike pseudovirus", "assay": "pseudovirus neutralization IC50; higher = weaker neutralization", "description": "as §1", "units": {"pseudovirus neutralization IC50": "µg/mL"}}
{"binder": "B1", "pseudovirus neutralization IC50": 1.61}
{"binder": "B2", "pseudovirus neutralization IC50": 0.00195}
{"binder": "B3", "pseudovirus neutralization IC50": 2.18}
{"binder": "B4", "pseudovirus neutralization IC50": "> 10"}
{"binder": "B5", "pseudovirus neutralization IC50": 0.0294}
{"binder": "B6", "pseudovirus neutralization IC50": 0.0201}
